Measured values from several laboratories, pooled; numbers as filed in NIAID ChemDB.

Shared fields: toxicity to cultured cells; cells: MT-2; read-out: CC50

Conditions beyond the fields shown may differ between rows. Two numbers with a dash give a range or band. An empty or dashed field is not shown. CCn: concentration that lowers growth or viability of the cells by n%.

structure	method	result
COc1cccc(CN2C(=O)N(Cc3cccc(C(=O)Nc4ccccn4)c3)[C@H](Cc3ccccc3)[C@H](O)[C@@H](O)[C@H]2Cc2ccccc2)c1		>50 µM
CCCCCCCCCCCCCCCCCCOC[C@H](COP(=O)(O)C(=O)O)OCCCC	MTT	591 µM
C(=C1/CNC/C(=C\c2ccco2)C1=Nc1ccccc1)/c1ccco1	XTT	>121 µM
CC(C)OC(=O)[C@H](C)N[P@](=O)(OC[C@H]1O[C@@](C#N)(c2ccc3c(N)ncnn23)[C@](C)(O)[C@@H]1OC(=O)C(C)C)Oc1ccccc1	ATP	>100 µM
Nc1ccn([C@H]2CC[C@@H](CO)O2)c(=O)n1		>32 µg/mL
COc1cccc(CN2C(=O)N(Cc3cccc(C(=O)Nc4ccc(C)cn4)c3)[C@H](Cc3ccccc3)[C@H](O)[C@@H](O)[C@H]2Cc2ccccc2)c1		>50 µM
Fc1ccc(N=C2/C(=C/c3ccco3)CNC/C2=C\c2ccco2)c(F)c1	XTT	>109 µM
COc1cc2c(cc1OC)[C@H](c1cc(OC)c(OC)c(OC)c1)[C@@H](C)[C@@H](C)C2		>10 µM
Nc1cccc(CN2C(=O)N(Cc3cccc(C(=O)Nc4ncc[nH]4)c3)[C@H](Cc3ccccc3)[C@H](O)[C@@H](O)[C@H]2Cc2ccccc2)c1		>50 µM
Oc1ccc2c(c1)N=C(N1CCNCC1)c1ccccc1N2		>100 µg/mL
CC1(C)CC(NC(=O)C(=O)Nc2ccc(Cl)cc2)CC(C)(C)N1	XTT	>0.05 µM
CCCCCCCCCCCCCCCCCCOC[C@H](COP(=O)(O)C(=O)O)OCC	MTT	743 µM
COc1cc(-c2cc(=O)c3c(O)cc(O[C@@H]4O[C@H](CO)[C@@H](O)[C@H](O)[C@H]4OS(=O)(=O)O)cc3o2)ccc1O		>800 µM
Fc1ccccc1N=C1/C(=C/c2ccco2)CNC/C1=C\c1ccco1	XTT	>114.8 µM
O=c1[nH]c(=O)n(CCOCP(=O)(O)O)cc1F	propidium iodide	>100 µM
[Li+]		>200 µg/mL
O=C1Nc2ccc(Cl)cc2[C@@](C#CC2CC2)(C(F)(F)F)O1	MTT	>6.3 µM
CC(C)CN(C[C@@H](O)[C@H](Cc1ccccc1)NC(=O)O[C@H]1CCOC1)S(=O)(=O)c1ccc(N)cc1	MTT	60.5 µM
O=C(O)c1cc(O)cc(O)c1N=Nc1ccc(/C=C/c2ccc(N=Nc3c(O)cc(O)cc3C(=O)O)cc2S(=O)(=O)O)c(S(=O)(=O)O)c1		110 µg/mL
CCCCCCCCCCCCCCCCCCOC[C@@H](O)COP(=O)(O)C(=O)O	MTT	1093 µM
CCCCCCCCCCCCCCCCOCCCOP(=O)(O)COCCn1ccc(N)nc1=O	propidium iodide	39 µM
Cc1ccc(NC(=O)c2cccc(CN3C(=O)N(Cc4cccc(N)c4)[C@H](Cc4ccccc4)[C@H](O)[C@@H](O)[C@H]3Cc3ccccc3)c2)nc1		>50 µM
O=C(/C=C/C=C/c1ccc(O)c(O)c1)[Se]c1ccccc1	MTT	31.9 µM
COc1cc(CN2C(=O)N(Cc3cccc(C(=O)Nc4ccc(C)cn4)c3)[C@H](Cc3ccccc3)[C@H](O)[C@@H](O)[C@H]2Cc2ccccc2)cc(OC)c1		>50 µM
Cc1ccc(/C=C/C=C/C(=O)[Se]c2ccccc2)cc1	MTT	32.9 µM
CC[C@H](C)[C@H]1NC(=O)[C@@H](NC(=O)[C@@H](C)NC)[C@@H](C)OC(=O)[C@H](Cc2ccc(OC)cc2)N(C)C(=O)[C@@H]2CCCN2C(=O)[C@H](CC(C)C)NC(=O)[C@@H](C)C(=O)[C@H](C(C)C)OC(=O)C[C@@H]1O	MTT	>55.49 µM
COc1cccc(CN2C(=O)N(Cc3cccc(C(=O)Nc4cccc(C)n4)c3)[C@H](Cc3ccccc3)[C@H](O)[C@@H](O)[C@H]2Cc2ccccc2)c1		>50 µM
Cc1cn([C@H]2C[C@H](N=[N+]=[N-])[C@@H](CO)O2)c(=O)[nH]c1=O		38 µg/mL
NC(=O)C(c1ccccc1)(c1ccccc1)[C@H]1CCCN(CCc2ccc3c(c2)CCO3)C1		53 µM
O=C(O)c1cn(C2CC2)c2cc(N3CCNCC3)c(F)cc2c1=O	ATP	>100 µM
O=C(/C=C/c1ccccc1)[Se]c1ccccc1	MTT	33.2 µM
CCCCCCCCCCCCCCCCCCOCC(COP(=O)(O)C(=O)O)(OC)OC	MTT	174 µM
CC(C)[C@H](NC(=O)OCc1ccccc1)C(=O)N[C@@H](Cc1ccccc1)[C@@H](O)[C@H](O)[C@H](Cc1ccccc1)NC(=O)[C@@H](NC(=O)OCc1ccccc1)C(C)C		65 µM
CC[C@H](C)[C@H]1NC(=O)[C@@H](NC(=O)[C@@H](C)N(C)C(=O)OCc2ccccc2)[C@@H](C)OC(=O)[C@H](Cc2ccc(OC)cc2)N(C)C(=O)[C@@H]2CCCN2C(=O)[C@H](CC(C)C)NC(=O)[C@@H](C)C(=O)[C@H](C(C)C)OC(=O)C[C@@H]1O	MTT	>48.3 µM
CC(C)(C)NC(=O)c1cccc(CN2C(=O)N(Cc3cccc(N)c3)[C@H](Cc3ccccc3)[C@H](O)[C@@H](O)[C@H]2Cc2ccccc2)c1		>50 µM
O=C(/C=C/c1ccc(O)cc1)[Se]c1ccccc1	MTT	33.7 µM
CCCCCCCCCCCCCCCCOCCCOP(=O)(O)COCCNc1cc(N)nc(N)n1	propidium iodide	20 µM
N#CCNC(=O)c1cccc(CN2C(=O)N(Cc3cccc(C(=O)NCC(=O)O)c3)[C@H](Cc3ccccc3)[C@H](O)[C@@H](O)[C@H]2Cc2ccccc2)c1		>50 µM
NC(=O)C(c1ccccc1)(c1ccccc1)C1CCCN(CCc2ccc3c(c2)CCO3)C1		53 µM
Cc1nc2n(c(=O)c1CCN1CCC(c3noc4cc(F)ccc34)CC1)CCCC2		15 µg/mL
CC(C)Cc1nc2ccccc2[nH]c1=O	trypan blue	114 µM
C=C(C)[C@@H]1CC[C@]2(C)CC[C@]3(C)[C@H](C[C@@H](O)[C@@H]4[C@@]5(C)CC[C@@H](O)C(C)(C)[C@@H]5CC[C@]43C)[C@@H]12	ATP	20–100 µM
CC(C)CN(C[C@@H](O)[C@H](Cc1ccccc1)NC(=O)O[C@H]1CO[C@H]2OCC[C@H]21)S(=O)(=O)c1ccc2c(c1)OCO2	MTT	35.7 µM
CC[C@H](C)[C@H]1NC(=O)[C@@H](NC(=O)[C@H](CC(C)C)N(C)C(=O)[C@@H]2CCCN2C(=O)C(C)=O)[C@@H](C)OC(=O)[C@H](Cc2ccc(OC)cc2)N(C)C(=O)[C@@H]2CCCN2C(=O)[C@H](CC(C)C)NC(=O)[C@@H](C)C(=O)[C@H](C(C)C)OC(=O)C[C@@H]1O	MTT	>45.03 µM
Cc1cn([C@H]2C[C@H](N=[N+]=[N-])[C@@H](CO)O2)c(=O)[nH]c1=O		>25 µM
COc1cc(CN2C(=O)N(Cc3cccc(C(=O)Nc4ccccn4)c3)[C@H](Cc3ccccc3)[C@H](O)[C@@H](O)[C@H]2Cc2ccccc2)cc(OC)c1		>50 µM
Nc1nc(NC2CC2)c2ncn([C@H]3C=C[C@@H](CO)C3)c2n1	MTT	>100 µM
CC[C@H](C)[C@H]1NC(=O)[C@@H](NC(=O)[C@@H](CC(C)C)N(C)S(=O)(=O)c2ccc(C)cc2)[C@@H](C)OC(=O)[C@H](Cc2ccc(OC)cc2)N(C)C(=O)[C@@H]2CCCN2C(=O)[C@H](CC(C)C)NC(=O)[C@H](C(C)C)OC(=O)C[C@@H]1O	MTT	1.14 µM

Repeating the final 7 entries:

| structure | method | result |
|---|---|---|
| C=C(C)[C@@H]1CC[C@]2(C)CC[C@]3(C)[C@H](C[C@@H](O)[C@@H]4[C@@]5(C)CC[C@@H](O)C(C)(C)[C@@H]5CC[C@]43C)[C@@H]12 | ATP | 20–100 µM |
| CC(C)CN(C[C@@H](O)[C@H](Cc1ccccc1)NC(=O)O[C@H]1CO[C@H]2OCC[C@H]21)S(=O)(=O)c1ccc2c(c1)OCO2 | MTT | 35.7 µM |
| CC[C@H](C)[C@H]1NC(=O)[C@@H](NC(=O)[C@H](CC(C)C)N(C)C(=O)[C@@H]2CCCN2C(=O)C(C)=O)[C@@H](C)OC(=O)[C@H](Cc2ccc(OC)cc2)N(C)C(=O)[C@@H]2CCCN2C(=O)[C@H](CC(C)C)NC(=O)[C@@H](C)C(=O)[C@H](C(C)C)OC(=O)C[C@@H]1O | MTT | >45.03 µM |
| Cc1cn([C@H]2C[C@H](N=[N+]=[N-])[C@@H](CO)O2)c(=O)[nH]c1=O |  | >25 µM |
| COc1cc(CN2C(=O)N(Cc3cccc(C(=O)Nc4ccccn4)c3)[C@H](Cc3ccccc3)[C@H](O)[C@@H](O)[C@H]2Cc2ccccc2)cc(OC)c1 |  | >50 µM |
| Nc1nc(NC2CC2)c2ncn([C@H]3C=C[C@@H](CO)C3)c2n1 | MTT | >100 µM |
| CC[C@H](C)[C@H]1NC(=O)[C@@H](NC(=O)[C@@H](CC(C)C)N(C)S(=O)(=O)c2ccc(C)cc2)[C@@H](C)OC(=O)[C@H](Cc2ccc(OC)cc2)N(C)C(=O)[C@@H]2CCCN2C(=O)[C@H](CC(C)C)NC(=O)[C@H](C(C)C)OC(=O)C[C@@H]1O | MTT | 1.14 µM |